Data set [1] is described as follows: Thermal stability (Tm) by CD signal at 222 nm. To be noted: at 10 μM. In kind it is physicochemical. On the procedure: Helicity was assessed by circular dichroism (“CD”) as follows. Briefly, CD spectra were obtained using a spectrometer equipped with a thermoelectric temperature controller. The spectra was obtained at 25° C. with 0.5 nanometer (nm) steps from 200 to 260 nm, with a 1.5 nm bandwith, and a typical averaging time of 4 seconds/step. After the cell/buffer blank was subtracted, spectra were smoothed using a third-order least-squares polynomial fit with a conservative window size to give random residuals. Raw ellipticity values were converted to mean residue ellipticity using standard methods, and plotted was the wavelength (from 200 to 260 nm) versus [θ]×10^−3 (degrees cm^2/dmol). Percent helicity values were then calculated using standard methods. Assessment of thermal stability was performed by monitoring the change in CD signal at 222 nm as temperature was raised in 2° C. steps, with 1 minute equilibration times. The thermal stability for each sample (e.g., synthetic peptide) was represented by the transition temperature (Tm) determined by the derivative method.

The nature of data set [2]: Oligomerization state by sedimentation equilibrium (analytical ultracentrifuge). The class given is physicochemical. The settings on record: in solution, 4° C. On the procedure:
Oligomerization state was assessed by using methods standard in the art for performing sedimentation equilibrium experiments and for analysis of the resultant data. In that regard, sedimentation equilibrium experiments were performed over a concentration range of synthetic peptide (1 μM to […]) as follows. Briefly, six-channel cells (12 mm optical path length) were used with an An-60 Ti rotor operated at 13,500 rpm, 18,000 rpm, 22,000 rpm, and 35,000 rpm) in an analytical ultracentrifuge at 4° C. The cell radii were scanned using 0.001 cm steps with 10 averages/scan at 3 different wavelengths (235 nm, 240 nm, 280 nm). Data obtained with solutions containing synthetic peptide was analyzed using a single species model to determine a weight-averaged molecular weight (MW). Diagnostic plots of MW/MW0 vs. rpm/rpm0 and MW vs. radial concentration were used to test for sample homogeneity. When systemic residuals or a MW higher than monomer molecular weight indicated the presence of self-association, associative models were investigated. The suitability of a model (goodness of fit) was judged by the trends observed in the residuals.

The structures appear in SMILES notation.

On to `CC[C@H](C)[C@H](NC(=O)CNC(=O)[C@H](Cc1c[nH]c2ccccc12)NC(=O)[C@@H](NC(=O)[C@@H](NC(=O)[C@H](CC(C)C)NC(=O)[C@H](CCC(N)=O)NC(=O)[C@H](CC(C)C)NC(=O)[C@H](CC(C)C)NC(=O)[C@H](Cc1c[nH]cn1)NC(=O)[C@H](CCC(N)=O)NC(=O)[C@@H](NC(=O)[C@H](C)NC(=O)[C@H](CCC(=O)O)NC(=O)[C@@H](NC(=O)[C@H](C)NC(=O)[C@H](CCCNC(=N)N)NC(=O)[C@H](CC(C)C)NC(=O)[C@H](CC(C)C)NC(=O)[C@H](CC(N)=O)NC(=O)[C@H](CC(N)=O)NC(=O)[C@H](CCC(N)=O)NC(=O)[C@H](CCC(N)=O)NC(=O)[C@H](CCC(N)=O)NC(=O)[C@@H](NC(=O)[C@@H](NC(=O)CNC(=O)[C@H](CO)NC(=O)[C@H](CC(C)C)NC(=O)[C@H](CC(C)C)NC(=O)[C@H](CCC(N)=O)NC(=O)[C@H](CCCNC(=N)N)NC(=O)[C@@H](NC(=O)[C@H](CCC(N)=O)NC(C)=O)[C@@H](C)CC)[C@@H](C)CC)C(C)C)[C@@H](C)CC)[C@@H](C)CC)[C@@H](C)CC)C(C)C)C(=O)N[C@@H](CCCCN)C(=O)N[C@@H](CCC(N)=O)C(=O)N[C@@H](CC(C)C)C(=O)N[C@@H](CCC(N)=O)C(=O)N[C@@H](C)C(=O)N[C@@H](CCCNC(=N)N)C(=O)N[C@H](C(=O)N[C@@H](CC(C)C)C(=O)N[C@@H](C)C(=O)N[C@H](C(=O)N[C@@H](CCC(=O)O)C(=O)N[C@@H](CCCNC(=N)N)C(=O)N[C@@H](Cc1ccc(O)cc1)C(=O)N[C@@H](CC(C)C)C(=O)N[C@@H](CCCCN)C(N)=O)C(C)C)[C@@H](C)CC` [SEQ ID NO: 42], for which the “Stability Tm” value in data set [1] was “Tm > 97 °C”.

Regarding `CC[C@H](C)[C@H](NC(=O)[C@H](Cc1ccc(O)cc1)NC(=O)[C@H](CCCNC(=N)N)NC(=O)[C@H](CCC(=O)O)NC(=O)[C@H](CC(C)C)NC(=O)[C@H](C)NC(=O)[C@H](CC(C)C)NC(=O)[C@@H](NC(=O)[C@H](CCCNC(=N)N)NC(=O)[C@H](C)NC(=O)[C@H](CCC(N)=O)NC(=O)[C@H](CC(C)C)NC(=O)[C@H](CCC(N)=O)NC(=O)[C@H](CCCCN)NC(=O)[C@@H](NC(=O)CNC(=O)[C@H](Cc1c[nH]c2ccccc12)NC(=O)[C@@H](NC(=O)[C@H](CC(C)C)NC(=O)[C@H](CC(C)C)NC(=O)[C@H](CCC(N)=O)NC(=O)[C@@H](NC(=O)[C@H](CC(C)C)NC(=O)[C@H](Cc1c[nH]cn1)NC(=O)[C@H](CCC(N)=O)NC(=O)[C@@H](NC(=O)[C@H](C)NC(=O)[C@H](CCC(=O)O)NC(=O)[C@H](CC(C)C)NC(=O)[C@H](C)NC(=O)[C@H](CCCNC(=N)N)NC(=O)[C@H](CC(C)C)NC(=O)[C@@H](NC(=O)[C@H](CC(N)=O)NC(=O)[C@H](CC(N)=O)NC(=O)[C@H](CCC(N)=O)NC(=O)[C@H](CCC(N)=O)NC(=O)[C@H](CCC(N)=O)NC(=O)[C@@H](NC(=O)[C@H](CC(C)C)NC(=O)CNC(=O)[C@H](CO)NC(=O)[C@@H](NC(=O)[C@H](CC(C)C)NC(=O)[C@H](CCC(N)=O)NC(=O)[C@H](CCCNC(=N)N)NC(=O)[C@H](C)NC(=O)[C@H](CCC(N)=O)NC(C)=O)C(C)C)C(C)C)[C@@H](C)CC)[C@@H](C)O)C(C)C)C(C)C)C(C)C)C(C)C)C(=O)N[C@@H](CCCCN)C(N)=O` [SEQ ID NO: 41], in data set [1], the “Stability Tm” value was “Tm > 97 °C”.

As to `CC[C@H](C)[C@H](NC(=O)CNC(=O)[C@H](Cc1c[nH]c2ccccc12)NC(=O)[C@H](C)NC(=O)[C@@H](NC(=O)[C@H](CC(C)C)NC(=O)[C@H](CCC(N)=O)NC(=O)[C@H](CC(C)C)NC(=O)[C@H](CC(C)C)NC(=O)[C@H](Cc1c[nH]cn1)NC(=O)[C@H](CCC(N)=O)NC(=O)[C@H](CCC(N)=O)NC(=O)[C@H](C)NC(=O)[C@H](CCC(=O)O)NC(=O)[C@@H](NC(=O)[C@H](C)NC(=O)[C@H](CCCNC(=N)N)NC(=O)[C@H](CC(C)C)NC(=O)[C@H](CC(C)C)NC(=O)[C@H](CC(N)=O)NC(=O)[C@H](CC(N)=O)NC(=O)[C@H](CCC(N)=O)NC(=O)[C@H](CCC(N)=O)NC(=O)[C@H](CCC(N)=O)NC(C)=O)[C@@H](C)CC)[C@@H](C)O)C(=O)N[C@@H](CCCCN)C(=O)N[C@@H](CCC(N)=O)C(=O)N[C@@H](CC(C)C)C(=O)N[C@@H](CCC(N)=O)C(=O)N[C@@H](C)C(=O)N[C@@H](CCCNC(=N)N)C(=O)N[C@H](C(=O)N[C@@H](CC(C)C)C(=O)N[C@@H](C)C(=O)N[C@H](C(=O)N[C@@H](CCC(=O)O)C(=O)N[C@@H](CCCNC(=N)N)C(=O)N[C@@H](Cc1ccc(O)cc1)C(=O)N[C@@H](CC(C)C)C(=O)N[C@@H](CCCCN)C(=O)N[C@@H](CC(=O)O)C(=O)N[C@@H](CCC(N)=O)C(N)=O)C(C)C)[C@@H](C)CC` [SEQ ID NO: 29], in data set [1], the “Stability Tm” value amounted to 65 °C.

Regarding `CC[C@H](C)[C@H](NC(=O)[C@H](Cc1ccc(O)cc1)NC(=O)[C@H](CCCNC(=N)N)NC(=O)[C@H](CCC(=O)O)NC(=O)[C@H](CC(C)C)NC(=O)[C@H](C)NC(=O)[C@H](CC(C)C)NC(=O)[C@@H](NC(=O)[C@H](CCCNC(=N)N)NC(=O)[C@H](C)NC(=O)[C@H](CCC(N)=O)NC(=O)[C@H](CC(C)C)NC(=O)[C@H](CCC(N)=O)NC(=O)[C@H](CCCNC(=N)N)NC(=O)[C@@H](NC(=O)CNC(=O)[C@H](Cc1c[nH]c2ccccc12)NC(=O)[C@@H](NC(=O)[C@H](CC(C)C)NC(=O)[C@H](C)NC(=O)[C@H](CCC(N)=O)NC(=O)[C@@H](NC(=O)[C@H](C)NC(=O)[C@H](Cc1c[nH]cn1)NC(=O)[C@H](CCC(N)=O)NC(=O)[C@@H](NC(=O)[C@H](C)NC(=O)[C@H](CCC(=O)O)NC(=O)[C@H](CC(C)C)NC(=O)[C@H](C)NC(=O)[C@H](CCCNC(=N)N)NC(=O)[C@H](CC(C)C)NC(=O)[C@@H](NC(=O)[C@H](CC(N)=O)NC(=O)[C@H](CC(N)=O)NC(=O)[C@H](CCC(N)=O)NC(=O)[C@H](CCC(N)=O)NC(=O)[C@H](CCC(N)=O)NC(=O)[C@@H](NC(=O)[C@H](CC(C)C)NC(=O)CNC(=O)[C@H](CO)NC(=O)[C@@H](NC(=O)[C@H](CC(C)C)NC(=O)[C@H](CCC(N)=O)NC(=O)[C@H](CCCNC(=N)N)NC(=O)[C@H](C)NC(=O)[C@H](CCC(N)=O)NC(C)=O)C(C)C)C(C)C)[C@@H](C)CC)[C@@H](C)O)C(C)C)C(C)C)C(C)C)C(C)C)C(=O)N[C@@H](CCCCN)C(N)=O` [SEQ ID NO: 37], the “Stability Tm” value in data set [1] was over 97 °C.

As to `CC[C@H](C)[C@H](NC(=O)CNC(=O)[C@H](Cc1c[nH]c2ccccc12)NC(=O)[C@@H](NC(=O)[C@@H](NC(=O)[C@H](C)NC(=O)[C@H](CCC(N)=O)NC(=O)[C@H](CC(C)C)NC(=O)[C@H](C)NC(=O)[C@H](Cc1c[nH]cn1)NC(=O)[C@H](CCC(N)=O)NC(=O)[C@H](CCC(N)=O)NC(=O)[C@H](C)NC(=O)[C@H](CCC(=O)O)NC(=O)[C@@H](NC(=O)[C@H](C)NC(=O)[C@H](CCCNC(=N)N)NC(=O)[C@H](CC(C)C)NC(=O)[C@H](CC(C)C)NC(=O)[C@H](CC(N)=O)NC(=O)[C@H](CC(N)=O)NC(=O)[C@H](CCC(N)=O)NC(=O)[C@H](CCC(N)=O)NC(=O)[C@H](CCC(N)=O)NC(=O)[C@@H](NC(=O)[C@@H](NC(=O)CNC(=O)[C@H](CO)NC(=O)[C@H](CC(C)C)NC(=O)[C@H](CC(C)C)NC(=O)[C@H](CCC(N)=O)NC(=O)[C@H](CCCNC(=N)N)NC(=O)[C@H](C)NC(=O)[C@H](CCC(N)=O)NC(C)=O)[C@@H](C)CC)C(C)C)[C@@H](C)CC)[C@@H](C)O)C(C)C)C(=O)N[C@@H](CCCCN)C(=O)N[C@@H](CCC(N)=O)C(=O)N[C@@H](CC(C)C)C(=O)N[C@@H](CCC(N)=O)C(=O)N[C@@H](C)C(=O)N[C@@H](CCCNC(=N)N)C(=O)N[C@H](C(=O)N[C@@H](CC(C)C)C(=O)N[C@@H](C)C(=O)N[C@H](C(=O)N[C@@H](CCC(=O)O)C(=O)N[C@@H](CCCNC(=N)N)C(=O)N[C@@H](Cc1ccc(O)cc1)C(=O)N[C@@H](CC(C)C)C(=O)N[C@@H](CCCCN)C(=O)N[C@@H](CC(=O)O)C(=O)N[C@@H](CCC(N)=O)C(N)=O)C(C)C)[C@@H](C)CC` [SEQ ID NO: 34], in data set [2], the Oligomerization result is on record as “trimeric”.

The record behind these values is patent US20040076637A1, “HIV-derived HR1 peptides modified to form stable trimers, and their use in therapy to inhibit transmission of human immunodeficiency virus” (priority 2002, published 2004).
